From patent US20110207784A1, “OXADIAZOLE-2-OXIDES AS ANTISCHISTOSOMAL AGENTS” (THE UNITED STATES OF AMERICA, AS REPRESENTED BY THE …, priority 2008, published 2011)

Amino acid sequences for entries named in this document (tags omitted). Residues count along the entry.
UniProt Q962Y6, 1-598: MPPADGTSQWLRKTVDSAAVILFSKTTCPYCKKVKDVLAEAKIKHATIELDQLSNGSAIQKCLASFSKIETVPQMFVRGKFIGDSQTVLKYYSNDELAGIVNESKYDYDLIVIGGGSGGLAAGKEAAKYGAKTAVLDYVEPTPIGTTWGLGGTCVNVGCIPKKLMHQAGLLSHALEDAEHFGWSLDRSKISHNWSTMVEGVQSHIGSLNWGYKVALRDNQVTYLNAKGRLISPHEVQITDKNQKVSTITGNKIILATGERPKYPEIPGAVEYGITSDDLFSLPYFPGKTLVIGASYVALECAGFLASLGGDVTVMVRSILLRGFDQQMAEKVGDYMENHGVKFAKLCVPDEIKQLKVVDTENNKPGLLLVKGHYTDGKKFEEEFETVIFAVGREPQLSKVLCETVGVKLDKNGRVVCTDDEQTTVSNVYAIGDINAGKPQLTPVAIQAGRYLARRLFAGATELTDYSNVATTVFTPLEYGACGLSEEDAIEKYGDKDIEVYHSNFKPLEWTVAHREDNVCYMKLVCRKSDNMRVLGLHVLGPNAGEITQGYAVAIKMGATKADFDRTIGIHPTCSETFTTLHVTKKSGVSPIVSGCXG

How the values were obtained:
[1] = system: freshly perfused S. mansoni worms; assay: ex vivo parasite killing assay; assay type: cell-based; conditions: compound at 10 μM, after 48 hours
[2] = target: Recombinant thioredoxin glutathione reductase (TGR) (Schistosoma mansoni, UniProt Q962Y6); assay: TGR enzyme inhibition assay (DTNB reduction, 1,536-well); assay type: biochemical, S. mansoni; conditions: for TGR Max. Resp.: maximum response of TGR activity at full efficacy (curve asymptote), −100 = complete inhibition; for IC50: read-out: TGR IC50, 15 min preincubation with NADPH/TGR, DTNB substrate, absorbance 405 nm

Row | SMILES | worms judged to be dead [1] | TGR Max. Resp. [2] | IC50 [2]
1 | N#Cc1c(-c2ccc(-c3no[n+]([O-])c3C#N)cc2)no[n+]1[O-] | 100% | -98 µM | 1000 nM
2 | N#Cc1c(-c2ccc(-c3no[n+]([O-])c3C#N)s2)no[n+]1[O-] | 100% | -102 µM | 400 nM
